Among the data in article PMC4148453 are binding result and Kd values, retold here.

Data set [1] deals with 6His-BfmR (Pseudomonas aeruginosa MPAO1) (UniProt Q9HWS7). As to the kind of experiment: DNase I footprinting. Particulars: 50 mM acetyl phosphate, 10 mM Tris-Cl pH 8.0, 1 mM DTT, 10% glycerol, 5 mM MgCl2, 10 mM KCl, with 50 mM acetyl phosphate when indicated, footprint at room temperature, recombinant protein, residues 1-246, protein details: N-terminal 6His (thrombin-cleavable, pET28a), probe letters rebuilt from the primers and the genome.

Data set [2] has the same target. Briefly: EMSA. The note with it: 10 mM Tris-Cl pH 8.0, 1 mM DTT, 10% glycerol, 5 mM MgCl2, 10 mM KCl, with 50 mM acetyl phosphate when indicated, EMSA 30 min at 37 C, footprint at room temperature, recombinant protein, residues 1-246, protein details: N-terminal 6His (thrombin-cleavable, pET28a), probe letters rebuilt from the primers and the genome.

pKd: −log10 of the molar value.

As for “ATGCCGTAGCGGTAGCTTTCGGTCGGTACCGGTGCGGCGGCCTGGGCGGCGAACGCGGGAAGCGCAAGCGCGGCGAGCAGGGTGGTGGCGAGCAGGGTGCGAGTCATGGGGGATCTCCTGGCGGCAGGACCGCGTCGGTGGAAGGCGACATGCCTTCGTCGAGGCCTATTCCAGGCCGCGGAGTTGTCCCGGATGTGTCGCTGGAATGCCCGATTCGTCAGCCGCTGTATCGCCGCTGCCGGCCGATACATGGCCGTACATTCGCCGCCCCGCTCCCGCCGGACGAATCGCGCCCGGCGCCATCCGTCGTCTCCCCCGTTCGCGACAGCGACAACCGGGCTTTTTTGCACGCCCCGGTATTCGCCCCGGCTCCGGATACAGTGCAATACAAACCCCGGCAGGCAAGCGCCGCGGGCGCGGATACACTGCTTGCAAGCACACCAACCGCCACGGGAGCCAGGCAATGGAGCATGTCGATCAC (double strand) [bfmR promoter, 6-FAM]”, the binding result in data set [1] (label: 5' 6-FAM on reverse strand) is “binds”.

In the case of “ATGCCGTAGCGGTAGCTTTCGGTCGGTACCGGTGCGGCGGCCTGGGCGGCGAACGCGGGAAGCGCAAGCGCGGCGAGCAGGGTGGTGGCGAGCAGGGTGCGAGTCATGGGGGATCTCCTGGCGGCAGGACCGCGTCGGTGGAAGGCGACATGCCTTCGTCGAGGCCTATTCCAGGCCGCGGAGTTGTCCCGGATGTGTCGCTGGAATGCCCGATTCGTCAGCCGCTGTATCGCCGCTGCCGGCCGATACATGGCCGTACATTCGCCGCCCCGCTCCCGCCGGACGAATCGCGCCCGGCGCCATCCGTCGTCTCCCCCGTTCGCGACAGCGACAACCGGGCTTTTTTGCACGCCCCGGTATTCGCCCCGGCTCCGGATACAGTGCAATACAAACCCCGGCAGGCAAGCGCCGCGGGCGCGGATACACTGCTTGCAAGCACACCAACCGCCACGGGAGCCAGGCAATGGAGCATGTCGATCAC (double strand) [bfmR promoter]”, the binding result in data set [2] is “binds”. Also, the negative-log Kd (pKd) in data set [2] (50 mM acetyl phosphate) was 6.70. “GATGTATCGGGGGTGTATCGCCCGACACGTGGATTTGTACGCCGGAGGTATCGAAACCGCGCATGGATACAAAGCGATACGCAATCGAGCGCGGGCATGCCGACGAAGTGCCGGGCATCTCTCACTCCCGCCGGCCCATCTCGGCTACCGTTAGGAGACAGCCACCTGGCCCAGTCTCGAGGTCGAGCCCATCGTGCTGAAACGCATTCCGGTAACCCAGCTTCGCCTCGGTATGTTCGTCCAGAGCCTTTGCGGCTCGTGGCTGGACCACCCGTTCTGGAAAAGAGGTGGCTTCCTGCTCGACAGCCAGGCCGACCTGCAGCGCCTGCGCGAAAGCGCCGTGAAGGAGGTCTGGATCGA (double strand) [PA4107 promoter (4107-P)]”: the binding result in data set [2] was “binds”.

As to “GTCGACAATGCGCTGAAGTTCGCCGGCGCCGCGCGCCTGGAAGTGGAACGCCGTACCGATGGCGGCACGCGAATCCAGGTGCTGGACAATGGCCCGGGGATTCCCGCCGAGGAACTCGACGAGGTGCTCAAGCCCTTCTACCGGGTGGAAAACTCGCGCAATCGCGACACCGGTGGCACCGGCCTCGGCCTGGCCATCGCGCAGCAGCTGAGCCTGGCCCTCGGCGGCCGCCTGACCCTGGCCAACCGCGCCGGCGGCGGGCTTTGCGCGCGCATCGAGCTGGACCCCTGAGGCGCCCGTACAGAGCGATACATAACCGCCCTCGGCGGACACACTGCGGATAAACCCGCTTGCAACACTCCTGGCCACGGGAAGCGGCGGCACATCGCCGAGCCGCTCCCGGCAACCAGGAGCCCCACCATGACCGTCCCAACCTCTC (double strand) [PA4103 promoter, FAM]”, in data set [1] (label: 5' FAM on reverse strand), the binding result was “binds”.
